Test results from article PMC9505826, “A Peptide Inhibitor of the Human Cytomegalovirus Core Nuclear Egress Complex” (Pharmaceuticals, 2022).

Tested on: HCMV AD169
Type: cell-based, human cytomegalovirus (HCMV strain AD169)
Protocol: Primary human foreskin fibroblasts (HFFs) were cultivated in minimal essential medium (MEM). Cell culture media were supplemented with 1× GlutaMAXTM (35050038, Thermo Fisher Scientific), […] gentamicin and 10% fetal bovine serum (FBS, F7524, Sigma Aldrich). All cells were incubated at 37 °C, 5% CO2 and 80% humidity. For infection with human cytomegalovirus (HCMV strain AD169), 2 × 10^5 HFFs were seeded in 12-well plates for 1 day (d) prior to infection at a multiplicity of infection (MOI) of 0.1. After 90 min of viral absorption, cells were incubated with peptides in the culture media media, which was supplemented with 2.5% FBS, 1× GlutaMAX^TM and 10 µg/mL gentamicin, at the indicated concentrations at 37 °C for 4–8 days. Viral supernatants were collected at 4, 6 and 8 days post-infection (d.p.i.).
HFFs were seeded in 12-well plates, used for HCMV infection at a MOI of 0.1 and treated with the indicated concentrations of each peptide. […] The amount of extracellular viral genomic loads was assessed in […] of each sample by real-time PCR (TaqMan-PCR). Two primers, namely 5′CMV ([…]) and 3′CMV ([…]), which anneal to a sequence within the major immediate early gene region of HCMV, were obtained to amplify and quantify the viral genome. […] HCMV genome equivalents from peptide-treated viral supernatants were calculated as % of the negative control.

Structure (SMILES): CC[C@H](C)[C@H](NC(=O)[C@H](C)NC(=O)[C@H](CCSC)NC(=O)[C@H](CCCCN)NC(=O)[C@H](CCSC)NC(=O)[C@H](CCSC)NC(=O)[C@H](CC(N)=O)NC(=O)[C@H](CC(C)C)NC(=O)[C@H](Cc1ccc(O)cc1)NC(=O)[C@H](CCCCN)NC(=O)[C@H](CC(C)C)NC(=O)[C@H](CCC(=O)O)NC(=O)[C@H](CC(C)C)NC(=O)[C@H](CCC(=O)O)NC(=O)[C@@H]1CCCN1C(=O)[C@H](Cc1c[nH]cn1)NC(=O)[C@H](CCC(=O)O)NC(=O)[C@H](CCCNC(=N)N)NC(=O)[C@H](Cc1ccccc1)NC(=O)[C@@H](NC(=O)[C@H](CC(=O)O)NC(=O)[C@H](Cc1c[nH]cn1)NC(=O)[C@H](CC(C)C)NC(=O)[C@H](CC(=O)O)NC(=O)[C@H](Cc1c[nH]cn1)NC(=O)[C@H](CC(C)C)NC(=O)[C@@H](NC(=O)[C@H](CC(C)C)NC(=O)COCCOCCNC(=O)[C@@H]1CCCN1C(=O)[C@@H]1CCCN1C(=O)[C@H](CCCNC(=N)N)NC(=O)[C@H](CCCNC(=N)N)NC(=O)[C@H](CCCNC(=N)N)NC(=O)[C@H](CCC(N)=O)NC(=O)[C@H](CCCNC(=N)N)NC(=O)[C@H](CCCNC(=N)N)NC(=O)[C@H](CCCCN)NC(=O)[C@H](CCCCN)NC(=O)[C@H](CCCNC(=N)N)NC(=O)CNC(=O)[C@H](Cc1ccc(O)cc1)NC(=O)COCCOCCNC(=O)[C@H](CCCNC(=N)N)NC(=O)[C@H](CCC(N)=O)NC(=O)[C@H](CCCNC(=N)N)NC(=O)[C@H](CCCNC(=N)N)NC(=O)[C@H](CCCCN)NC(=O)[C@H](CCCNC(=N)N)NC(=O)[C@H](CC(C)C)NC(=O)[C@H](CC(C)C)NC(=O)[C@H](CO)NC(=O)[C@H](CCCNC(=N)N)NC(C)=O)[C@@H](C)O)[C@@H](C)CC)C(=O)N[C@H](C(N)=O)[C@@H](C)O [NLS-CPP-Hook]
- SI, selectivity index (CC50/EC50) (CC50 (HFF, Neutral Red) / EC50 (HCMV qPCR)): 7.9
- EC50 relative to the IC50 value of the hook peptide for inhibition of the pUL50–pUL53 interaction in vitro (EC50 of NLS-CPP-Hook (Table 2) versus IC50 of the hook peptide (Table 1)): approximately 45 fold
